Assay results: patent US10709758B2 (priority 2015, dated 2020)

Tested on: CHO-K1 cells
Assay: Cell penetrating activity: flow cytometry of labeled cargo uptake into CHO-K1 cells
Type: cell-based
Settings: CHO-K1, 30 min 37° C., 50 μM peptide with dextranAF488, CROPAF488 or dsRNAfluorescein (FIGS. 34-38)

Sequence: NVFKDNTISDKISFNFSDK
- cell penetrating activities of mutant peptides: the cell penetrating activities remained intact
